# PSTVd loop 15 mutant pool in Nicotiana benthamiana

Data from the supplement of Wu et al. 2024, doi:10.1371/journal.ppat.1012142.

Region: loop 15 of PSTVd (intermediate strain), upper and lower strand joined, each 5' to 3', the first 7 letters being the upper strand, closing pairs included. Wild type: GGAAACCGCUACUAC. Varied positions (N): GGAAACCGNNNNNNC.

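Three N. benthamiana plants were inoculated with the whole mutant pool. Progeny were sequenced from the inoculated region (day 5), the margin of the inoculated leaf (day 10) and systemic leaves (day 12).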

Numbers give reads per thousand; 0 = not seen among the reads, higher = more abundant. Each site shows the three plants. "Pool" is the share in the plasmid pool used as inoculum, on the same scale. The inoculated region was read from the minus strand, the other sites from the plus strand.

sequence | pool | inoculated region | leaf margin | systemic leaves
GGAAACCGAUAGCUC | 0.272 | 0.262 0.353 0.381 | 0.194 0.178 0.120 | 0.0322 0 0
GGAAACCGAUAGGAC | 0.352 | 0.295 0.289 0.190 | 0.0647 0.156 0.120 | 0.0966 0.0605 0.0684
GGAAACCGAUAGGCC | 0.240 | 0.115 0.0803 0.152 | 0 0 0 | 0 0 0.0228
GGAAACCGAUAGGGC | 0.304 | 0.377 0.386 0.419 | 0.0808 0.0445 0.120 | 0.0161 0 0
GGAAACCGAUAGGUC | 0.176 | 0.311 0.225 0.419 | 0.113 0.0445 0.120 | 0.0644 0.0454 0.160
GGAAACCGAUAGUAC | 0.336 | 0.229 0.369 0.400 | 9.67 5.08 0.180 | 5.65 3.95 1.91
GGAAACCGAUAGUCC | 0.224 | 0.360 0.257 0.495 | 0.129 0.0445 0.180 | 0.0322 0.0605 0.114
GGAAACCGAUAGUGC | 0.320 | 0.328 0.193 0.209 | 0.0970 0.134 0.180 | 0.0644 0.0756 0.0684
GGAAACCGAUAGUUC | 0.304 | 0.311 0.289 0.343 | 0.210 0.111 0.0200 | 0.0161 0 0
GGAAACCGAUAUAAC | 0.192 | 0.197 0.402 0.476 | 0.194 0.0445 0.0801 | 0.0644 0.136 0.0912
GGAAACCGAUAUACC | 0.160 | 0.131 0.209 0.0762 | 0.0162 0 0 | 0.0161 0 0
GGAAACCGAUAUAGC | 0.256 | 0.213 0.369 0.248 | 0.146 0.0445 0.120 | 0.0161 0 0
GGAAACCGAUAUAUC | 0.240 | 0.475 0.466 0.438 | 0.0647 0.156 0.0401 | 0.0322 0.0756 0.0456
GGAAACCGAUAUCAC | 0.176 | 0.344 0.353 0.457 | 0.0647 0.0223 0.200 | 0.0483 0.0605 0.0456
GGAAACCGAUAUCCC | 0.224 | 0.0655 0.0964 0.114 | 0 0 0.0200 | 0 0 0
GGAAACCGAUAUCGC | 0.384 | 0.197 0.0803 0.171 | 0 0.0223 0 | 0 0 0
GGAAACCGAUAUCUC | 0.128 | 0.524 0.466 0.343 | 0.0970 0.0891 0.120 | 0.0644 0 0
GGAAACCGAUAUGAC | 0.160 | 0.131 0.0964 0.0571 | 0 0 0 | 0 0 0
GGAAACCGAUAUGCC | 0.336 | 0.0819 0.161 0.133 | 0 0.0223 0 | 0 0 0
GGAAACCGAUAUGGC | 0.176 | 0.0655 0.0964 0.0952 | 0.0162 0.0223 0 | 0 0 0
GGAAACCGAUAUGUC | 0.256 | 0.213 0.161 0.152 | 0.0162 0 0.0401 | 0.0161 0 0
GGAAACCGAUAUUAC | 0.240 | 0.262 0.241 0.248 | 0.0970 0.0891 0.220 | 0.0322 0.0151 0.0912
GGAAACCGAUAUUCC | 0.176 | 0.311 0.337 0.209 | 0.0323 0.0668 0.200 | 0.0161 0.0303 0.0684
GGAAACCGAUAUUGC | 0.224 | 0.311 0.434 0.533 | 0.0970 0.0668 0.120 | 0.0161 0.106 0.114
GGAAACCGAUAUUUC | 0.272 | 0.377 0.321 0.362 | 0.146 0.0223 0.200 | 0.0644 0.0756 0.137
GGAAACCGAUCAAAC | 0.144 | 0.0819 0.225 0.114 | 0 0.0223 0 | 0 0 0
GGAAACCGAUCAACC | 0.144 | 0.0983 0.177 0.0952 | 0 0 0 | 0 0 0
GGAAACCGAUCAAGC | 0.336 | 0.0655 0.0321 0.114 | 0 0 0 | 0 0 0.0228
GGAAACCGAUCAAUC | 0.272 | 0.344 0.129 0.343 | 0.0162 0 0.0200 | 0.0161 0 0
GGAAACCGAUCACAC | 0.224 | 0.0655 0.0803 0.114 | 0 0 0 | 0 0 0
GGAAACCGAUCACCC | 0.224 | 0.131 0.129 0.152 | 0 0.0445 0.0200 | 0 0 0
GGAAACCGAUCACGC | 0.208 | 0.262 0.112 0.419 | 0 0 0 | 0.0322 0.0151 0
GGAAACCGAUCACUC | 0.176 | 0.131 0.0643 0.0952 | 0.0162 0 0.0401 | 0.0161 0 0
GGAAACCGAUCAGAC | 0.240 | 0.0819 0.145 0.133 | 0.0162 0 0.0200 | 0 0 0
GGAAACCGAUCAGCC | 0.336 | 0.131 0.0643 0.0381 | 0.0323 0.0223 0.0401 | 0 0 0
GGAAACCGAUCAGGC | 0.256 | 0.0491 0.0643 0.0381 | 0 0 0.0200 | 0.0161 0 0
GGAAACCGAUCAGUC | 0.256 | 0.115 0.129 0.0952 | 0 0 0.0601 | 0 0 0
GGAAACCGAUCAUAC | 0.176 | 0.295 0.241 0.286 | 0.0808 0.0223 0.0801 | 0.0644 0.0303 0.0684
GGAAACCGAUCAUCC | 0.336 | 0.229 0.193 0.267 | 0.0162 0.0223 0.0200 | 0.0322 0 0
GGAAACCGAUCAUGC | 0.144 | 0.0983 0.129 0.0762 | 0.0162 0 0.0200 | 0.0161 0 0
GGAAACCGAUCAUUC | 0.192 | 0.213 0.386 0.533 | 0.113 0.134 0.140 | 0.0322 0.0151 0
GGAAACCGAUCCAAC | 0.144 | 0.0819 0.0964 0.0762 | 0.0162 0 0 | 0 0 0
GGAAACCGAUCCACC | 0.192 | 0.0983 0.0803 0.0571 | 0 0 0 | 0 0 0
GGAAACCGAUCCAGC | 0.208 | 0.131 0.0803 0.0381 | 0 0 0.0200 | 0 0 0
GGAAACCGAUCCAUC | 0.256 | 0.180 0.145 0.171 | 0.0162 0.0223 0.0601 | 0.0322 0 0
GGAAACCGAUCCCAC | 0.160 | 0.0491 0.0964 0.0762 | 0.0162 0 0 | 0 0 0
GGAAACCGAUCCCCC | 0.208 | 0.164 0.0964 0.133 | 0 0.0445 0.0401 | 0 0 0
GGAAACCGAUCCCGC | 0.272 | 0.0655 0.0482 0.0571 | 0 0 0.0200 | 0 0 0
GGAAACCGAUCCCUC | 0.240 | 0.180 0.0643 0.0952 | 0 0 0 | 0 0 0
GGAAACCGAUCCGAC | 0.192 | 0.131 0.0643 0.0381 | 0 0.0223 0.0200 | 0.0161 0 0
GGAAACCGAUCCGCC | 0.320 | 0.0819 0.112 0.0762 | 0 0 0.0200 | 0 0 0
GGAAACCGAUCCGGC | 0.304 | 0.197 0.418 0.190 | 0 0.0223 0.0601 | 0 0 0
GGAAACCGAUCCGUC | 0.272 | 0.0655 0.0482 0.0571 | 0.0162 0 0 | 0 0 0
GGAAACCGAUCCUAC | 0.240 | 0.393 0.177 0.533 | 0.113 0.0891 0.200 | 0.0483 0.0303 0.0912
GGAAACCGAUCCUCC | 0.272 | 0.147 0.193 0.171 | 0 0 0 | 0.0161 0 0
GGAAACCGAUCCUGC | 0.304 | 0.0983 0.0964 0.133 | 0 0 0 | 0 0 0
GGAAACCGAUCCUUC | 0.304 | 0.426 0.626 0.609 | 0.0647 0.0891 0.100 | 0.0644 0.0605 0.114
GGAAACCGAUCGAAA | 0.0160 | 0.704 0.739 0.666 | 0.0808 0.0891 0.0801 | 0.0483 0 0
GGAAACCGAUCGAAC | 0.256 | 0.246 0.305 0.381 | 0.113 0.0668 0.180 | 0.0644 0.0151 0.0456
GGAAACCGAUCGACC | 0.240 | 0.131 0.112 0.0762 | 0.0323 0 0 | 0 0 0
GGAAACCGAUCGAGC | 0.160 | 0.164 0.0964 0.209 | 0.0162 0 0.0200 | 0 0 0
GGAAACCGAUCGAUC | 0.224 | 0.475 0.209 0.190 | 0 0 0 | 0 0 0
GGAAACCGAUCGCAC | 0.208 | 0.0983 0.112 0.0762 | 0 0 0 | 0 0 0
GGAAACCGAUCGCCC | 0.208 | 0.0819 0.145 0.0952 | 0.0162 0 0.0200 | 0.0161 0 0

Extract of 7 entries:

* GGAAACCGAUAGGAC (pool 0.352) -> inoculated region 0.295 0.289 0.190; leaf margin 0.0647 0.156 0.120; systemic leaves 0.0966 0.0605 0.0684
* GGAAACCGAUCGAUC (pool 0.224) -> inoculated region 0.475 0.209 0.190; leaf margin 0 0 0; systemic leaves 0 0 0
* GGAAACCGAUCAUGC (pool 0.144) -> inoculated region 0.0983 0.129 0.0762; leaf margin 0.0162 0 0.0200; systemic leaves 0.0161 0 0
* GGAAACCGAUCAGGC (pool 0.256) -> inoculated region 0.0491 0.0643 0.0381; leaf margin 0 0 0.0200; systemic leaves 0.0161 0 0
* GGAAACCGAUCGAAC (pool 0.256) -> inoculated region 0.246 0.305 0.381; leaf margin 0.113 0.0668 0.180; systemic leaves 0.0644 0.0151 0.0456
* GGAAACCGAUAUAAC (pool 0.192) -> inoculated region 0.197 0.402 0.476; leaf margin 0.194 0.0445 0.0801; systemic leaves 0.0644 0.136 0.0912
* GGAAACCGAUAUCGC (pool 0.384) -> inoculated region 0.197 0.0803 0.171; leaf margin 0 0.0223 0; systemic leaves 0 0 0

With 43,870-66,106 reads a sample, very low values are single reads. For reference, wild type rose from 33.9 per thousand in the pool to 202, 200, 159 (inoculated region), 724, 746, 710 (leaf margin) and 856, 883, 880 (systemic leaves). Sequences that differ at fixed positions probably stem from PCR or sequencing errors, and defective variants can be carried along by functional ones.